Compound potency records, mixed from different reports. Data source: NIAID ChemDB in PubChem.

Common to all: tests in culture; species: Mycobacterium tuberculosis

Rows are shuffled and stem from different studies. A number after MIC or MFC names an inhibition level or a share of isolates. Blank or dashed fields: not listed here. ECn is the concentration giving n% inhibition of infection, replication or growth. MIC bound: limit read from a one-dose screen. Inhibition is in % at the dose shown (toxicity tests: loss of growth or viability).

compound | strain or isolate | mutations | conditions | read by | endpoint | dose | cell line | value
O=C(NNCc1ccccc1F)c1ccncc1 | Erdman | - | inside macrophages | colony count | EC90 | - | Macrophages | 0.28 µg/mL
COc1cccc(CSc2ncccn2)c1 | H37Ra | - | - | - | MIC | - | - | >12.8 µg/mL
CCOC(=O)C(=NNc1cccc(Cl)c1)C(=O)OCC | H37Rv | - | - | - | MIC | - | - | >100 µg/mL
CO[C@H]1/C=C/O[C@@]2(C)Oc3c(C)c(O)c4c(O)c(c5c(c4c3C2=O)NC2(CCN(CC(C)C)CC2)N=5)=NC(=O)/C(C)=C\C=C\[C@H](C)[C@H](O)[C@@H](C)[C@@H](O)[C@@H](C)[C@H](OC(C)=O)[C@@H]1C | Strain 86-99 (S531L) | - | - | - | MIC | - | - | 6 µg/mL
Nc1ccccc1CCC(=O)c1ccccc1 | H37Rv | - | - | - | MIC | - | - | 25 µg/mL
CC(=O)NC(C)C(=O)NC1C(C)OC(=O)C2=C(O)CC(O)C(O)C21 | H37Rv | - | - | BACTEC | MIC bound | - | - | >12.5 µg/mL
CCN(CC)Cc1ccc([N+](=O)[O-])cc1 | H37Rv | - | - | - | MIC | - | - | >100 µg/mL
Cc1cc(NC(=O)c2ccc(N)cc2)ccc1N=Nc1ccc(N=Nc2cc(S(=O)(=O)[O-])cc3cc(S(=O)(=O)[O-])cc(O)c23)c2ccccc12.[Na+].[Na+] | H37Rv | - | - | BACTEC | MIC bound | - | - | ≤128 µg/mL
Clc1cc(Cl)c2c(N/N=C/c3ccc4c(c3)OCO4)ccnc2c1 | H37Rv | - | - | - | MIC | - | VERO | >12.5 µg/mL
NNC(=O)c1ccncc1 | PR1499 | - | - | - | MIC | - | - | 0.16 µg/mL
N[C@@H]1CONC1=O | H37Ra | - | - | - | Mean MIC | - | - | 25 µg/mL
O=c1nc(SCc2ccc(F)cc2C(F)(F)F)c2[nH]cnc2[nH]1 | H37Rv | - | - | - | MIC90 | - | - | >6.25 µg/mL
O=C(O)c1cccc([N+](=O)[O-])c1Cl | H37Rv | - | - | - | MIC | - | - | >100 µg/mL
CCCC1(CN2c3ccccc3Sc3ccccc32)CCN(CC)C1.Cl | H37Rv | - | - | BACTEC | MIC bound | - | - | ≤12.5 µg/mL
NC[C@H]1O[C@H](O[C@H]2[C@H](O)[C@@H](O[C@H]3O[C@H](CO)[C@@H](O)[C@H](N)[C@H]3O)[C@H](N)C[C@@H]2N)[C@H](O)[C@@H](O)[C@@H]1O | H37Ra | - | - | - | Mean MIC | - | - | 2.5 µg/mL
O=[N+]([O-])c1cccc(-c2ccccn2)c1 | H37Rv | - | - | - | MIC | - | - | 100 µg/mL
Cc1ccc(Nc2cc(Cl)nc(N)n2)cc1 | H37Rv | - | - | BACTEC | MIC bound | - | - | >12.5 µg/mL
Cc1cc(NN)c2ccc(Cl)cc2n1 | H37Rv | - | - | - | MIC | - | VERO | 12.5 µg/mL
Nc1cccc([N+](=O)[O-])c1 | H37Rv | - | - | - | MIC | - | - | >100 µg/mL
Clc1ccccc1Sc1ncnc2nc[nH]c12 | H37Ra | - | - | - | MIC | - | - | >12.8 µg/mL
COc1ccccc1Nc1nc(-c2ccc([N+](=O)[O-])o2)cs1 | H37Rv | - | - | BACTEC | inhibition | 12.5 µg/mL | - | 54%
C[C@H]1COc2c(N3CCN(C)CC3)c(F)cc3c(=O)c(C(=O)O)cn1c23 | 7R | - | - | - | MIC | - | - | 0.5 µg/mL
O=C1OC(=O)c2c1nc1ccccc1c2-c1ccccc1 | H37Rv | - | - | BACTEC | inhibition | 12.5 µg/mL | - | -5%
Nc1ccc(C(=O)Nc2ccccc2)c(O)c1 | H37Rv | - | - | - | MIC | - | - | >100 µg/mL
CC(NNC(=O)c1ccncc1)c1ccc(Cl)c(Cl)c1 | H37Rv | - | - | - | MIC | - | - | 1.6 µg/mL
CC(=O)OCC1OC(n2c(C)cc(-c3ccco3)c(C#N)c2=S)C(OC(C)=O)C(OC(C)=O)C1OC(C)=O | H37Rv | - | - | BACTEC | MIC bound | - | - | >12.5 µg/mL
O=C(N/N=C/c1cccc(F)c1)c1ccncc1 | Erdman | - | inside macrophages | colony count | EC50 | - | Macrophages | <0.011 µg/mL
CO[C@H]1/C=C/O[C@@]2(C)Oc3c(C)c(O)c4c(=O)c(c5oc6cc(N7CCN(CC(C)C)CC7)cc(=O)c6nc5c4c3=C2O)NC(=O)/C(C)=C\C=C\[C@H](C)[C@H](O)[C@@H](C)[C@@H](O)[C@@H](C)[C@H](OC(C)=O)[C@@H]1C | TN800 | - | - | - | MIC | - | - | 16 µg/mL
NCC[C@H](O)C(=O)N[C@@H]1C[C@H](N)[C@@H](O[C@H]2O[C@H](CN)[C@@H](O)[C@H](O)[C@H]2O)[C@H](O)[C@H]1O[C@H]1O[C@H](CO)[C@@H](O)[C@H](N)[C@H]1O | 3R | - | - | - | MIC | - | - | 2.5 µg/mL
CC(=O)OCc1cc(=O)n(C)c2c3c4c(cc12)c(C)cc(=O)n4CO3 | H37Rv | - | - | BACTEC | MIC | - | - | 1.6 µg/mL
Cc1ccccc1CSc1nc(=O)[nH]c2nc[nH]c12 | H37Rv | - | - | - | inhibition | 6.25 µg/mL | - | 0%
Cc1ccc2c(=O)n(-c3ccc(Cl)cc3)c(=O)oc2c1 | CNCTC MY331/88 | - | - | - | MIC | - | - | 31 µM
O=C1NN(C2=NNC3(C(=O)N2)c2ccccc2-c2ccccc23)C(c2ccccc2)=N/C1=C\c1ccc(O)cc1 | H37Rv | - | - | resazurin | MIC bound | - | - | >6.25 µg/mL
CO[C@H]1/C=C/O[C@@]2(C)Oc3c(C)c(O)c4c(O)c(c(/C=N/N5CCN(C6CCCC6)CC5)c(O)c4c3C2=O)NC(=O)/C(C)=C\C=C\[C@H](C)[C@H](O)[C@@H](C)[C@@H](O)[C@@H](C)[C@H](OC(C)=O)[C@@H]1C | L192 | - | - | - | MIC | - | - | 0.1 µg/mL
NC(=O)n1[nH]c(=O)cc1N | H37Rv | - | - | - | MIC | - | - | >100 µg/mL
COc1ccc2c(=O)n(-c3ccc(Cl)cc3)c(=O)oc2c1 | CNCTC MY331/88 | - | - | - | MIC | - | - | 32 µM
OCc1cnc[nH]1 | H37Rv | - | - | - | MIC | - | - | >100 µg/mL
COc1ccc2c3c([nH]c2c1)C1CC2C(CC(O)C(OC)C2C(=O)O)CN1CC3 | H37Rv | - | - | BACTEC | MIC bound | - | - | >12.5 µg/mL
CN[C@@H]1[C@H](O[C@H]2[C@H](O[C@H]3[C@H](O)[C@@H](O)[C@H](N=C(N)N)[C@@H](O)[C@@H]3N=C(N)N)O[C@@H](C)[C@]2(O)C=O)O[C@@H](CO)[C@H](O)[C@H]1O | H37Ra | - | - | - | Median MIC | - | - | 0.94 µg/mL
COc1ccc2nc(-c3ccccc3)cc(N/N=C/c3ccc([N+](=O)[O-])o3)c2c1 | H37Rv | - | - | - | inhibition | 12.5 µg/mL | VERO | 72%
Clc1nc(Sc2ccccc2Cl)c2[nH]cnc2n1 | H37Ra | - | - | - | MIC | - | - | >12.8 µg/mL
O=C1CN(c2cccc(Cl)c2)C(=O)CN1/N=C/c1ccco1 | H37Rv | - | - | BACTEC | inhibition | 12.5 µg/mL | - | 0%
CO[C@H]1/C=C/O[C@@]2(C)Oc3c(C)c(O)c4c(O)c(c(/C=N/N5CCN(C6CCCC6)CC5)c(O)c4c3C2=O)NC(=O)/C(C)=C\C=C\[C@H](C)[C@H](O)[C@@H](C)[C@@H](O)[C@@H](C)[C@H](OC(C)=O)[C@@H]1C | Isolate 920492 rifampicin-resistant | - | - | - | MIC | - | - | >64 µg/mL
CCCCc1ccc(S(=O)(=O)Nc2ccc(N)cc2)cc1 | H37Rv | - | - | - | MIC | - | - | >100 µg/mL
COc1ccccc1CSc1ncnc2nc[nH]c12 | H37Rv | - | - | - | inhibition | 6.25 µg/mL | - | 0%
Nc1cc2c(cc1Br)[nH]c(=O)c1ccccc12 | H37Rv | - | - | BACTEC | MIC bound | - | - | ≤12.5 µg/mL
O=C(O)C1CCCO1 | H37Rv | - | - | - | MIC | - | - | >100 µg/mL
COc1ccc2oc(=O)n(-c3cccc(Cl)c3)c(=O)c2c1 | CNCTC MY331/88 | - | - | - | MIC | - | - | 125 µM
CCCc1ccncc1 | H37Rv | - | - | - | MIC | - | - | >100 µg/mL
NC[C@H]1O[C@H](O[C@H]2[C@H](O)[C@@H](O[C@H]3O[C@H](CO)[C@@H](O)[C@H](N)[C@H]3O)[C@H](N)C[C@@H]2N)[C@H](O)[C@@H](O)[C@@H]1O | TN810 (001/19) | - | - | - | MIC | - | - | >256 µg/mL
CC1COc2c(N3CCN(C)CC3)c(F)cc3c(=O)c(C(=O)O)cn1c23 | H37Rv | - | - | - | Median MIC | - | - | 0.75 µg/mL
O=C(NNCc1ccccc1)c1ccncc1 | H37Rv (ethambutol-resistant) | - | - | - | MIC | - | - | 1 µg/mL
COc1ccc2c(=O)n(-c3ccc(Cl)c(Cl)c3)c(=O)oc2c1 | CNCTC MY331/88 | - | - | - | MIC | - | - | 8 µM
CC1COc2c(N3CCN(C)CC3)c(F)cc3c(=O)c(C(=O)O)cn1c23 | 001-011 (drug-resistant) | - | - | - | MBC | - | - | 1.5 µg/mL
O=C(c1ccccc1)c1ccc(Br)s1 | H37Rv | - | - | - | MIC | - | - | >100 µg/mL
COc1c(N2CCNC(C)C2)c(F)cc2c(=O)c(C(=O)O)cn(C3CC3)c12 | Strain 370 | - | - | - | MIC | - | - | 0.25 µg/mL
Cc1ccccc1CSc1ncccn1 | H37Rv | - | - | - | inhibition | 6.25 µg/mL | - | 0%
CC(C)Nc1c(Br)cc(Br)c2c1C(=O)c1ccccc1C2=O | H37Rv | - | - | - | MIC | - | - | >100 µg/mL
CC(=O)OCC1OC(OC2=C(c3ccccc3)C(=O)C(OC3OC(COC(C)=O)C(OC(C)=O)C(OC(C)=O)C3OC(C)=O)=C(c3ccccc3)C2=O)C(OC(C)=O)C(OC(C)=O)C1OC(C)=O | H37Rv | - | - | BACTEC | inhibition | 12.5 µg/mL | - | -13%
CCCCCCCCCCCCCCNC(=O)C(=O)NCCCCCCCCCCCCCC | H37Rv | - | - | - | MIC | - | - | >100 µg/mL
Cc1cc(N/N=C/c2ccccc2)c2cc(C3CCCCC3)ccc2n1 | H37Rv | - | - | - | inhibition | 12.5 µg/mL | VERO | 100%
Cc1ccc(C)n1-c1cccc(-c2ccccn2)c1 | H37Rv | - | - | - | MIC | - | - | >100 µg/mL
c1ccc(CSc2ccccn2)cc1 | H37Rv | - | - | - | inhibition | 6.25 µg/mL | - | 0%
CCOC(=O)/C=C(\C)NC1CC(=O)NC1=O | H37Rv | - | - | BACTEC | MIC bound | - | - | >12.5 µg/mL
CN(C)CCC(=O)c1ccc(Cl)cc1 | H37Rv | - | - | - | MIC | - | - | 25 µg/mL
NNC(=O)c1ccncc1 | NHN113 | - | - | - | MIC | - | - | 5 µg/mL
NNC(=O)c1ccncc1 | Clinical isolate BRF 14 | INH resistant | - | resazurin | MIC | - | - | 2 µg/mL
CO[C@H]1/C=C/O[C@@]2(C)Oc3c(C)c(O)c4c(O)c(c(/C=N/N5CCN(C/C=C/c6ccccc6)CC5)c(O)c4c3C2=O)NC(=O)/C(C)=C\C=C\[C@H](C)[C@H](O)[C@@H](C)[C@@H](O)[C@@H](C)[C@H](OC(C)=O)[C@@H]1C | H37Rv | - | - | - | MBC | - | - | 0.12 µg/mL
O=C1NCCNC1=O | H37Rv | - | - | BACTEC | MIC bound | - | - | >12.5 µg/mL
C/C(=N\NC(=O)c1ccncc1)c1ccccc1 | H37Rv | - | - | - | MIC | - | - | 0.1 µg/mL
COC(=O)C(=O)c1c(C(=O)OC)nc2[nH]n(-c3ccccc3)c(=O)c2c1-c1cccc2ccccc12 | H37Rv | - | - | BACTEC | inhibition | 12.5 µg/mL | - | 11%
C[C@@H]1CN(c2c(F)c(N)c3c(=O)c(C(=O)O)cn(C4CC4)c3c2F)C[C@H](C)N1 | 900241 | - | - | - | MIC | - | - | 0.2 µg/mL
O=C(O)/C=C/C(=O)O | H37Rv | - | - | - | MIC | - | - | >100 µg/mL
CO[C@H]1/C=C/O[C@@]2(C)Oc3c(C)c(O)c4c(=O)c(c5oc6cc(N7CCN(CC(C)C)CC7)cc(=O)c6nc5c4c3=C2O)NC(=O)/C(C)=C\C=C\[C@H](C)[C@H](O)[C@@H](C)[C@@H](O)[C@@H](C)[C@H](OC(C)=O)[C@@H]1C | Watanabe | - | inside macrophages | - | inhibition | 5 µg/mL | - | 31.1%
CCOC(=O)C(NC(=O)c1cccc(Cl)c1)(N1CCN(c2cc3c(cc2F)c(=O)c(C(=O)O)cn3C2CC2)CC1)C(F)(F)F | H37Rv | - | - | resazurin | MIC bound | - | - | <6.25 µg/mL
C[C@H]1COc2c(N3CCN(C)CC3)c(F)cc3c(=O)c(C(=O)O)cn1c23 | Strain 35 | - | - | - | MIC | - | - | 16 µg/mL
C/C(=N\NC(=O)c1ccncc1)c1ccc(F)cc1 | H37Rv (ethionamide-resistant) | - | - | - | MIC | - | - | >32 µg/mL
COC(=O)c1cc(Cl)ccc1OCC(O)CNc1ccc(Cl)cc1C(=O)c1ccccc1 | H37Rv | - | - | resazurin | inhibition | 6.25 µg/mL | - | 1%
Cc1cc(-c2cc3c(cc2F)c(=O)c(C(=O)O)cn3C2CC2)cc(C)n1 | H37Rv | - | - | - | MIC | - | - | 1 µg/mL
O=[N+]([O-])c1oc2ccc3ccccc3c2c1CCO | H37Rv | - | - | resazurin | MIC bound | - | - | >6.25 µg/mL
O=Cc1ccc(O)cc1 | H37Rv | - | - | - | MIC | - | - | >100 µg/mL
Cc1ccc(Nc2nc3c(s2)C(=O)c2ccccc2C3=O)c(C)c1 | H37Rv | - | - | - | MIC | - | VERO | 1.6 µg/mL
O=C1C=C(S(=O)(=O)O)c2ccccc2C1=O | H37Rv | - | - | - | MIC | - | - | 50 µg/mL